Compound potency records, mixed from different reports. Data source: NIAID ChemDB in PubChem.

All rows: growth or infection tests; organism: HIV-1; read by: XTT; read-out: EC50

An empty or dashed field is not shown. Neighbouring rows are from separate reports. ECn is the concentration giving n% inhibition of infection, replication or growth.

compound,changes,cell line,strain or isolate,value
CC(C)CCCCCCCCCCCSCNc1ccc(S(=O)(=O)c2ccc(NCSCCCCCCCCCCCC(C)C)cc2)cc1,,CEM + CEM-SS,RF,>100 µg/mL
Nc1ncnc2c1ncn2CCOCP(=O)(O)O,,MT-2,IIIB,10 µM
Nc1nc2c(ncn2C[C@H](CCO)OCP(=O)(O)O)c(=O)[nH]1,,CEM,BRU,>100 µM
CCCc1cc(=O)oc2c3c(c4c(c12)OC(C)(C)C=C4)O[C@H](C)[C@H](C)[C@@H]3O,,CEM + CEM-SS,RF,>10 µM
CCCc1cc(=O)oc2c3c(c4c(c12)OC(C)(C)C=C4)O[C@H](C)[C@@H](C)[C@@H]3O,RT-K103N,CEM + CEM-SS,NL4-3,1.7 µM
Nc1nc2c(ncn2C[C@@H](CF)OCP(=O)(O)O)c(=O)[nH]1,,CEM,BRU,77 µM
N#Cc1ccc(S(=O)(=O)c2ccc(C#N)cc2)cc1,,CEM + CEM-SS,RF,>100 µg/mL
O=S(=O)(c1ccccc1)c1ccccc1,,CEM + CEM-SS,IIIB,3.7 µM
O=S(=O)(c1ccc(Cl)c(Cl)c1)c1ccc(Cl)c(Cl)c1,,CEM + CEM-SS,RF,>100 µg/mL
O=C(O)P(=O)(O)O,,MT-2,HXB2D,40 µM
CN1N=C(N)c2cn([C@@H]3O[C@H](COP(=O)(O)O)[C@@H](O)[C@H]3O)c3ncnc1c23,,CEM + CEM-SS,ED,>2.8 µM
CNC(=O)[C@@H](Cc1c[nH]c2ccccc12)NC(=O)OC[C@H]1O[C@@H](n2cc(C)c(=O)[nH]c2=O)C[C@@H]1N=[N+]=[N-],,PBMC,LAI,4 µM
Nc1nc2c(ncn2C[C@H](OCP(=O)(O)O)C2CC2)c(=O)[nH]1,,CEM,RF,>100 µM
CNC(=O)[C@@H](Cc1ccccc1)NC(=O)OC[C@H]1O[C@@H](n2cc(C)c(=O)[nH]c2=O)C[C@@H]1N=[N+]=[N-],,PBMC,LAI,1.8 µM
Cc1cn([C@H]2C[C@H](N=[N+]=[N-])[C@@H](CO)O2)c(=O)[nH]c1=O,,CEM + CEM-SS,NL4-3,0.001 µM
CNc1ccc(Cl)cc1S(=O)(=O)c1ccccc1[N+](=O)[O-],RT-T139L,CEM + CEM-SS,Calanolide A-resistant (RT T139L),0.7 µM
Nc1ccn([C@H]2CC[C@@H](CO)O2)c(=O)n1,,MT-2,HXB2D,2 ± 0.5 µM
CNC(=O)[C@H](Cc1c[nH]c2ccccc12)NC(=O)OC[C@H]1O[C@@H](n2cc(C)c(=O)[nH]c2=O)C[C@@H]1N=[N+]=[N-],,PBMC,LAI,2.2 µM
Nc1ccn([C@H]2CC[C@@H](CO)O2)c(=O)n1,,MT-2,HXB2D,0.6 µM
O=S(=O)(c1ccc(I)cc1)c1ccc(I)cc1,,CEM + CEM-SS,RF,>100 µg/mL
CCCc1cc(=O)oc2c3c(c4c(c12)OC(C)(C)C=C4)O[C@@H](C)[C@H](C)[C@@H]3O,RT-V108I,CEM + CEM-SS,Thiazolobenzimidazole-resistant (RT V108I),4.4 µM
COC(=O)[C@H](Cc1c[nH]c2ccccc12)NP(=O)(O)OC[C@H]1O[C@@H](n2cc(C)c(=O)[nH]c2=O)C[C@@H]1N=[N+]=[N-],,PBMC,LAI,0.3 µM